Results taken from PubChem BioAssay (NCATS).
The entries are a selection whose mix differs from that of the whole data set. Records with an inconclusive call do not appear. Calls of active or inactive are those of the source. Calls follow the shape of the dose curve; as a rule, active = well fitted inhibition curve with a large enough effect; inconclusive = small, poorly fitted or top-dose-only effect; inactive = flat fitted curve, though single readings scatter.

Assays:
Experiment in all cases: qHTS profiling for inhibitors of Plasmodium falciparum proliferation (AID 504749); also: nearly all actives have a fitted effect of over 60% in size;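 as to activity, negative = inhibition: 0% = DMSO vehicle and full inhibition = artemisinin control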
[1] = tested on: ATS189; details: P. falciparum in erythrocytes, SYBR Green DNA, 72 h; series mostly up to 28.7 µM
Outline: (§1)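 Readout was DNA-dye fluorescence from lysed cultures, ex 485/em 535 nm. Parasitized red cells had grown 72 h with compound; data scaled between 0.29 uM artemisinin and DMSO wells and corrected using vehicle-only plates.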

[2] = tested on: ATS95; details: P. falciparum in erythrocytes, SYBR Green DNA, 72 h; series mostly up to 28.7 µM
Outline: as §1

[3] = tested on: C2A; details: P. falciparum in erythrocytes, SYBR Green DNA, 72 h; series mostly up to 28.7 µM
Outline: as §1

[4] = tested on: CP185; details: P. falciparum in erythrocytes, SYBR Green DNA, 72 h; series mostly up to 28.7 µM
Outline: as §1

[5] = tested on: CP191; details: P. falciparum in erythrocytes, SYBR Green DNA, 72 h; at 28.7 µM (top of the series) unless noted
Outline: as §1

[6] = tested on: CP192; details: P. falciparum in erythrocytes, SYBR Green DNA, 72 h; at 28.7 µM (top of the series) unless noted
Outline: as §1

[7] = tested on: CP194; details: P. falciparum in erythrocytes, SYBR Green DNA, 72 h; series mostly up to 28.7 µM
Outline: as §1

[8] = tested on: CP201; details: P. falciparum in erythrocytes, SYBR Green DNA, 72 h; at 28.7 µM (top of the series) unless noted
Outline: as §1

[9] = tested on: CP203; details: P. falciparum in erythrocytes, SYBR Green DNA, 72 h; at 28.7 µM (top of the series) unless noted
Outline: as §1

[10] = tested on: CP211; details: P. falciparum in erythrocytes, SYBR Green DNA, 72 h; at 28.7 µM (top of the series) unless noted
Outline: as §1
Potency is read from the fitted curve at half-maximal effect.

Structure (SMILES) | Potency [1] | Potency [2] | Potency [3] | Potency [4] | activity, negative = inhibition [5] | activity, negative = inhibition [6] | Potency [7] | activity, negative = inhibition [8] | activity, negative = inhibition [9] | activity, negative = inhibition [10]
CC(C)OP(=O)(F)OC(C)C | inactive | inactive | inactive | inactive | inactive: 5.56% | inactive: 5.58% | inactive | inactive: 4.93% | inactive: 4.88% | inactive: 0.725%
O=[N+]([O-])OCC(CO[N+](=O)[O-])(CO[N+](=O)[O-])CO[N+](=O)[O-] | active: 5.62 µM | active: 5.62 µM | active: 6.31 µM | active: 4.47 µM |  | inactive: -18.5% | active: 12 µM |  |  | inactive: -15.4%
O=[N+]([O-])c1cccc([N+](=O)[O-])c1 | inactive | inactive | inactive | inactive | inactive: -2.46% | inactive: 1.87% | inactive | inactive: -1.1% | inactive: 4.31% | inactive: -0.423%
C/C1=C2N=C(/C=C3N=C(/C(C)=C4\[N-][C@@](C)([C@H]5N=C1[C@@](C)(CCC(=O)NC[C@H](C)OP(=O)([O-])O[C@@H]1[C@H](O)[C@H](n6cnc7cc(C)c(C)cc76)O[C@@H]1CO)[C@@H]5CC(N)=O)[C@](C)(CC(N)=O)[C@H]4CCC(N)=O)[C@@](C)(CC(N)=O)[C@@H]\3CCC(N)=O)C(C)(C)[C@@H]/2CCC(N)=O.[C-]#N.[Co+3] | inactive | inactive | inactive | inactive | inactive: 3.58% [at 12.8 µM] | inactive: -5.33% [at 12.8 µM] | inactive | inactive: -12.9% [at 12.8 µM] | inactive: 11.3% [at 12.8 µM] | inactive: -1.13% [at 12.8 µM]
